Measured values from several laboratories, pooled; numbers as filed in NIAID ChemDB.

Common to all: toxicity to cultured cells; cells: MOLT-4; endpoint: CC50

Blank or dashed fields: not listed here. Lines come from different laboratories, so protocols vary. a–b is a range or a potency band. CCn is the concentration with n% toxicity to the cells.

COC(=O)[C@@H](NC(=O)[C@@H](NC(=O)[C@@H](C)NC[C@H](O)[C@H](Cc1ccccc1)NC(=O)[C@H](C)NC(=O)OCc1ccccc1)C(C)C)C(C)C ; value: >100 µM
Nc1ncnc2c1ncn2[C@H]1C[C@@H](O)[C@H](O)[C@@H]1O ; value: 4.65 µM
O=C1C=CC(=C(c2ccc(O)cc2)c2ccc(O)cc2)C=C1 ; value: >100 µg/mL
CCn1cc(C(=O)O)c(=O)c2cc(F)c(N3CCN(c4ccccc4OC)CC3)c(OC(F)F)c21 ; value: 8.1 µM
CC[C@@H]1/C=C(\C)C[C@H](C)C[C@H](OC)[C@H]2O[C@@](O)(C(=O)C(=O)N3CCCC[C@H]3C(=O)O[C@H](/C(C)=C/[C@H]3CC[C@H](O)[C@H](OC)C3)[C@H](C)[C@@H](O)CC1=O)[C@H](C)C[C@@H]2OC ; value: 30 µg/mL
CSc1nc(N)nc2c1ncn2[C@H]1C[C@H](O)[C@@H](CO)S1 ; value: >100 µM
O[C@@H]1[C@H](O)CO[C@H]1n1c(Br)nc2cc(Cl)c(Cl)cc21 ; value: 47 µM
Cn1cc(C(=O)O)c(=O)c2cc(F)c(N3CC=C(c4ccccc4)CC3)c(C(F)(F)F)c21 ; value: >1 µM
Nc1nc2c(ncn2COC(CO)CO)c(=O)[nH]1 ; value: 35–72 µM
O=S(=O)(c1cccc2cnccc12)N1CCNCC1 ; value: 8.4 µg/mL
COc1ccccc1N1CCN(c2c(F)cc3c(=O)c(C(=O)O)cn(C)c3c2CN(C)C)CC1 ; value: 9.7 µM
CC(C)Nc1nc2cc(Cl)c(Cl)cc2n1[C@@H]1OC[C@@H](O)[C@H]1O ; value: 84 µM
CCn1cc(C(=O)O)c(=O)c2cc(F)c(N3CCN(c4ccccc4OC)CC3)c(OC(F)F)c21 ; value: 6.6 µM
Cn1c2ccccc2c(=O)c2c(O)cccc21 ; value: 14.8 µg/mL
CC(C)CCCCCCCCCCCN(C)OP(=O)(O)N(CC(N)=O)P(=O)(O)OC1C(OC[C@H]2O[C@@H](n3ccc(=O)[nH]c3=O)[C@H](O)[C@@H]2O)=C(CO)C(O)C1O ; value: ~6 µM
CC(C)(C)NC(=O)[C@@H]1CCCN1C(=O)[C@@H](O)[C@H](Cc1ccccc1)NC(=O)[C@H](CC(N)=O)NC(=O)OCc1ccccc1 ; value: >40 µM
O=C(CCl)/C(=N\O)c1ccc(Cl)cc1 ; conditions: 24 h ; value: 5 µM

Repeating the final 2 entries:

structure	conditions	value
CC(C)(C)NC(=O)[C@@H]1CCCN1C(=O)[C@@H](O)[C@H](Cc1ccccc1)NC(=O)[C@H](CC(N)=O)NC(=O)OCc1ccccc1	-	>40 µM
O=C(CCl)/C(=N\O)c1ccc(Cl)cc1	24 h	5 µM